Results of unrelated studies side by side (data: NIAID ChemDB).

Shared fields: toxicity to cultured cells; cell line: CEM; measure: CC50

CCn is the concentration with n% toxicity to the cells. An empty or dashed field is not shown. Lines come from different laboratories, so protocols vary. a–b is a range or a potency band.

structure | method | result
CC(C)c1c(Sc2ccccc2)n(CC2CC=CC2)c(=O)[nH]c1=O |  | 36.2 µM
Cc1cccc(C(C#N)S(=O)c2cccc[n+]2[O-])c1 | cell count | 0.74 µg/mL
C=C[C@@H](O)C1=C[C@@H](n2cnc3c(N)ncnc32)[C@H](O)[C@@H]1O |  | 3.8 µg/mL
Nc1cc(OC[C@H]2CC[C@@H](CO)O2)ncn1 |  | >250 µM
[O-][n+]1cc(Cl)ccc1SCc1ccccc1 | cell count | 66 µg/mL
Cc1cc(Cl)cc2c1S(=O)(=O)N=C(C(=O)c1ccc(Cl)c(Cl)c1)S2 | XTT | >200 µM
Cc1ccc(C)c(CS(=O)(=O)c2cccc(C)[n+]2[O-])c1 | cell count | ≥100 µg/mL
Nc1nc(OC[C@H]2CC[C@@H](COCc3ccccc3)O2)cc(OC[C@@H]2CC[C@H](COCc3ccccc3)O2)n1 |  | 28 µM
COc1cc(CS(=O)c2cccc[n+]2[O-])cc(OC)c1OC | cell count | 40 µg/mL
c1ccc(COC[C@H]2CC[C@@H](COc3cc(OC[C@H]4CC[C@@H](COCc5ccccc5)O4)ncn3)O2)cc1 |  | 21 µM
Cc1cc2c(cc1Cl)SC(C(=O)c1ccc3ccccc3c1)=NS2(=O)=O | XTT | >200 µM
[O-][n+]1cccc(Cl)c1SCc1ccccc1 | cell count | >100 µg/mL
COC(=O)[C@H](C)NP(=O)(OC[C@@H]1C=C[C@H](n2cc(CCCNC(=O)C(F)(F)F)c(=O)[nH]c2=O)O1)Oc1ccccc1 | MTT | 4.3 µM
CCc1c(C(=O)c2cc(C)cc(C)c2)n(CC2CCCCC2)c(=O)[nH]c1=O |  | >1080 µM
O=S(=O)(Cc1ccccc1Cl)c1cccc[n+]1[O-] | cell count | 19 µg/mL
Nc1nccc(OC[C@@H]2O[C@H](CO)[C@@H](O)[C@H]2O)n1 |  | >250 µM
O=C(Cc1cn([C@H]2C=C[C@@H](CO)O2)c(=O)[nH]c1=O)NCCCCCCCCCCNC(=O)c1c2ccccc2nc2ccccc12 | MTT | >10 µM
Cc1cc(C)cc(Sc2c(C(C)C)c(=O)[nH]c(=O)n2CCC2C=CCC2)c1 |  | 38 µM
Nc1nc(N)nc(OC[C@H]2CC[C@@H](CO)O2)n1 |  | >250 µM
O=c1[nH]c(=O)n([C@@H]2C=C[C@H](CO)O2)cc1CCO | MTT | >100 µM
CC[C@@H](O)C1=C[C@@H](n2cnc3c(N)ncnc32)[C@H](O)[C@@H]1O |  | 34 µg/mL
Cc1cc2c(cc1Cl)SC1=NC(CSCc3ccccc3)CN1S2(=O)=O | XTT | >200 µM
Nc1nccc(OC[C@H]2CC[C@@H](CO)O2)n1 |  | >250 µM
CCc1c(Sc2cc(C)cc(C)c2)n(CC2CCC2)c(=O)[nH]c1=O |  | 991 µM
Cc1ccc(C)c(C(C)S(=O)(=O)c2ccccn2)c1 | cell count | 3.1 µg/mL
COC(=O)[C@H](C)NP(=O)(OC[C@H]1C=C[C@@H](n2cc(CC(=O)NCCCCCCNC(=O)C(F)(F)F)c(=O)[nH]c2=O)O1)Oc1ccccc1 | MTT | >100 µM
Cc1cc(Cl)cc2c1S(=O)(=O)N=C(C(=O)c1ccc3ccccc3c1)S2 | XTT | 49.2 µM
COC(=O)C(c1cc(C)ccc1C)S(=O)(=O)c1cccc[n+]1[O-] | cell count | 36 µg/mL
Cc1cc(C)cc(Oc2c(C(C)C)c(=O)[nH]c(=O)n2CCC2C=CCC2)c1 |  | 20.9 µM
[O-][n+]1c(Cl)cccc1SCc1ccccc1 | cell count | 48 µg/mL
Nc1ncnc2c1ncn2[C@H]1O[C@H](CO)[C@@H](F)[C@@H]1F |  | >100 µM
COc1cc(C[C@@H]2COC(=O)[C@@]2(O)Cc2ccc(O)c(OC)c2)ccc1O |  | 4.02–5.74 µM
Cc1ccc(C)c(C(C)S(=O)(=O)c2cccc(Cl)[n+]2[O-])c1 | cell count | 4.5 µg/mL
C#C[C@@H](O)C1=C[C@@H](n2cnc3c(N)ncnc32)[C@H](O)[C@@H]1O |  | 0.45 µg/mL
CCc1c(Sc2cc(C)cc(C)c2)n(CC2CC=CC2)c(=O)[nH]c1=O |  | 59.5 µM
Cc1cc2c(cc1Cl)SC(C(=O)c1ccc([N+](=O)[O-])cc1)=NS2(=O)=O | XTT | 125 µM
O=S(=O)(Cc1ccccc1)c1cccc[n+]1[O-] | cell count | 36 µg/mL
Nc1ncnc2c1ncn2[C@@H]1O[C@H](CO)[C@@H](F)[C@@H]1F |  | >100 µM
O=C(C1=NS(=O)(=O)c2ccc(Cl)cc2S1)c1ccc(Cl)cc1 | XTT | >200 µM
COC(=O)Cc1cn([C@H]2C=C[C@@H](COP(=O)(N[C@@H](C)C(=O)OC)Oc3ccccc3)O2)c(=O)[nH]c1=O | MTT | >100 µM
COCC(c1cc(C)ccc1C)S(=O)(=O)c1ccccn1 | cell count | ≥100 µg/mL
O=c1[nH]c(=O)n([C@H]2C=C[C@@H](CO)O2)cc1CCO | MTT | >1 µM
Cc1ccc(C)c(C(CC(=O)O)S(=O)(=O)c2cccc[n+]2[O-])c1 | cell count | 87 µg/mL
Cc1cc(C)cc(Sc2c(C(C)C)c(=O)[nH]c(=O)n2CC2CCCCC2)c1 |  | 17.3 µM
COc1ccc(OC)c(CS(=O)(=O)c2cccc[n+]2[O-])c1 | cell count | 60 µg/mL
Cc1cc2c(cc1Cl)SC(C(=O)c1ccc(Cl)cc1)=NS2(=O)=O | XTT | 159 µM
Cc1ccc(C)c(C(Cc2ccccc2)S(=O)(=O)c2cccc[n+]2[O-])c1 | cell count | 30 µg/mL
Nc1cc(OC[C@H]2CC[C@@H](CO)O2)nc(N)n1 |  | >250 µM
O=S(=O)(Cc1ccccc1Oc1ccccc1)c1cccc[n+]1[O-] | cell count | 10 µg/mL
COC(=O)Cc1cn([C@@H]2C=C[C@H](COP(=O)(N[C@@H](C)C(=O)OC)Oc3ccccc3)O2)c(=O)[nH]c1=O | MTT | >100 µM
O=S(=O)(Cc1ccccc1)c1ccccn1 | cell count | 68 µg/mL
CC(C)c1c(C(=O)c2ccccc2)n(CC2CC=CC2)c(=O)[nH]c1=O |  | >1180 µM
O=C(C1=NS(=O)(=O)c2ccc(Cl)cc2S1)c1ccc(Cl)c(Cl)c1 | XTT | 124 µM
COc1ccc([N+](=O)[O-])cc1CS(=O)(=O)c1cccc[n+]1[O-] | cell count | 17 µg/mL

For reference, 3 entries again:

{"structure": "Cc1cc2c(cc1Cl)SC(C(=O)c1ccc(Cl)cc1)=NS2(=O)=O", "method": "XTT", "result": "159 µM"}
{"structure": "Cc1ccc(C)c(C(CC(=O)O)S(=O)(=O)c2cccc[n+]2[O-])c1", "method": "cell count", "result": "87 µg/mL"}
{"structure": "O=S(=O)(Cc1ccccc1Cl)c1cccc[n+]1[O-]", "method": "cell count", "result": "19 µg/mL"}